Results on one substance are retold here after article PMC10404671, “Deciphering the biosynthesis of a novel lipid in Mycobacterium tuberculosis expands the known roles of the nitroreductase superfamily” (The Journal of Biological Chemistry, 2023).

The data set has as its system CCCCCCCCCCCC(=O)SCCNC(=O)CCNC(=O)[C@H](O)C(C)(C)COP(=O)(O)OP(=O)(O)OC[C@H]1O[C@@H](n2cnc3c(N)ncnc32)[C@H](O)[C@@H]1OP(=O)(O)O. Description: purified protein. The conditions noted are these: pH 7.2; 25.0 °C.

TyzA (Mycobacterium tuberculosis H37Rv): the Km (in general, the substrate concentration at which the rate is half of its maximum) came out at 14 ± 2 µM.
